Assays:
[1] = tested on: A2058 cells (EGFR-/HER2^+/−); assay: Targeted protein toxin mediated cell killing on A2058 cells
[2] = tested on: HeLa cells (EGFR^+/−/HER2^+/−); assay: Targeted protein toxin mediated cell killing on HeLa cells; settings: read-out: cell killing, IC50; HeLa; titrated on fixed 50 pM trastuzumab-saporin

Row | Substance | cell killing activity ([1]; + 10 pM CD71mab-saporin) | cell killing activity ([1]; + 10 pM trastuzumab-saporin) | IC50 [2] [nM] | IC50 ([1]; read-out: cell killing, IC50, titrated on fixed 50 pM trastuzumab-saporin) [nM]
1 | Cetuximab-(Cys-L-QSmix) 4,1: QSmix-EMCH conjugated via cysteine residues (Cys) to cetuximab, DAR 4,1 | no activity | no activity | – | –
2 | cetuximab-(Cys-L-SO1861) 3,7: SO1861-EMCH conjugated via cysteine residues (Cys) to cetuximab, DAR 3,7 | – | – | 400 | > 400

Source: patent US20260000783A1, “ANTIBODY-DRUG CONJUGATE WITH IMPROVED T[…]” (priority 2018, published 2026)
